Compound potency records, mixed from different reports. Data source: NIAID ChemDB in PubChem.

All rows: tests in culture; organism: Mycobacterium avium

Neighbouring rows are from separate reports. An empty or dashed field is not shown.

SMILES,strain,endpoint,result
O/N=C(/Cn1ccnc1)c1ccccc1,103317,MIC,39.7 µM
CCCCCOc1cccc(NC(=O)OCCN2CCCCC2)c1,MY330/88,MIC,62.5 µM
NC[C@H]1O[C@H](O[C@H]2[C@H](O)[C@@H](O[C@H]3O[C@H](CO)[C@@H](O)[C@H](N)[C@H]3O)[C@H](N)C[C@@H]2N)[C@H](O)[C@@H](O)[C@@H]1O,ATCC 25291,Mean MIC,3.13 µg/mL
CCCCC(CC)CNC[C@H]1O[C@H](O[C@H]2O[C@H](CNCC(CC)CCCC)[C@@H](O)[C@H](O)[C@H]2O)[C@H](O)[C@@H](O)[C@@H]1O,NJ168,MIC,64 µg/mL
Cc1c(CN2CCSCC2)cc(-c2ccccc2)n1-c1ccccc1F,,MIC,>16 µg/mL
CC(C)N=c1cc2n(-c3ccc(Cl)cc3)c3ccccc3nc-2cc1Nc1ccc(Cl)cc1,24657,MIC,6.7 µg/mL
CCCCCCCCOc1ccc(NC(=O)OCCN(C)C)cc1,MY330/88,MIC,8 µM
CCCCCCCCCCCCN(CCCCCCCCCCCC)C[C@H]1O[C@H](O[C@H]2O[C@H](CN(CCCCCCCCCCCC)CCCCCCCCCCCC)[C@@H](O)[C@H](O)[C@H]2O)[C@H](O)[C@@H](O)[C@@H]1O,NJ3404,MIC,>128 µg/mL
O=C(Nc1cccc([N+](=O)[O-])c1)c1ccccc1O,CNCTC MY330/88,MIC,31 µM
N#Cc1cc(SCc2c(F)cccc2[N+](=O)[O-])ccn1,CNCTC MY330/88,MIC,126 µM
Cc1ccc(NC(=O)c2ncccc2S)cc1,CNCTC MY330/88,MIC,32 µM
CC[C@H]1OC(=O)[C@H](C)C(=O)[C@H](C)[C@@H](O[C@@H]2O[C@H](C)C[C@H](N(C)C)[C@H]2O)[C@](C)(OC)C[C@@H](C)C(=O)[C@H](C)[C@H]2N(CCCCn3cnc(-c4cccnc4)c3)C(=O)O[C@]12C,Isolate 1257,MIC,≥40 µg/mL
CN1CCN(c2ccc(NCc3ccc(-c4ccccc4)cc3)cc2)CC1,103317,MIC,10.8 µM
N#Cc1ccc(CSc2ncn[nH]2)cc1,MY330/88,MIC,1000 µM
c1ccc(-c2ccc(CNc3cccc(N4CCOCC4)c3)cc2)cc1,103317,MIC,22.3 µM
S=c1[nH]c2ccccc2c(=S)n1-c1ccc(Cl)c(Cl)c1,330/88,MIC,32 µM
Cc1cccc(C(N)=Nc2nc(-c3ccccn3)cc3ccccc23)c1,SK-18,MIC,1 µg/mL
N#Cc1cc(SCc2cccc(Cl)c2)ccn1,CNCTC MY330/88,MIC,30.9 µM
Cc1c(CN2CCSCC2)cc(-c2cccc3ccccc23)n1-c1ccccc1,,MIC,>16 µg/mL
Cc1ccc(CSc2ccnc(C#N)c2)cc1,CNCTC MY330/88,MIC,30.9 µM
CC1COc2c(N3CCN(C)CC3)c(F)cc3c(=O)c(C(=O)O)cn1c23,ATCC 25291,Mean MIC,>8 µg/mL
N#Cc1cc(SCc2ccc(Cl)cc2)ccn1,CNCTC MY330/88,MIC,15.85 µM
Clc1ccccc1CSc1ncn[nH]1,MY330/88,MIC,500 µM
S=c1[nH]c2ccccc2c(=S)n1-c1ccc(Cl)cc1,330/88,MIC,64 µM
CCCCOc1cccc(NC(=O)OCCN2CCCCC2)c1,MY330/88,MIC,62.5 µM
S=c1oc2c(Cl)cc(Cl)cc2c(=S)n1-c1ccc(Cl)cc1,330/88,MIC,64 µM
CCCCCCCCCCCC(N)=NC[C@H]1O[C@H](O[C@H]2O[C@H](CN)[C@@H](O)[C@H](O)[C@H]2O)[C@H](O)[C@@H](O)[C@@H]1O,NJ168,MIC,>128 µg/mL
Clc1ccc(CNc2ccc(N3CCSCC3)cc2)cc1,103317,MIC,103 µM
Cc1ccc(-n2c(=S)oc3c(Cl)cc(Cl)cc3c2=S)cc1,330/88,MIC,125 µM
Cc1c(CN2CCSCC2)cc(-c2ccccc2Cl)n1-c1ccccc1F,,MIC,>16 µg/mL
CCCCCCCCCCCCCCCCS(=O)(=O)NC[C@H]1O[C@H](O[C@H]2O[C@H](CNS(=O)(=O)CCCCCCCCCCCCCCCC)[C@@H](O)[C@H](O)[C@H]2O)[C@H](O)[C@@H](O)[C@@H]1O,NJ168,MIC,>64 µg/mL
Cn1cnnc1SCc1cc([N+](=O)[O-])cc([N+](=O)[O-])c1,MY330/88,MIC,>1000 µM
O/N=C(/Cn1ccnc1)c1ccc(Cl)cc1Cl,103317,MIC,118 µM
CCCCCCNC[C@H]1O[C@H](O[C@H]2O[C@H](CNCCCCCC)[C@@H](O)[C@H](O)[C@H]2O)[C@H](O)[C@@H](O)[C@@H]1O,NJ168,MIC,>128 µg/mL
Cc1ccc2nc(SCc3cccc(C(N)=S)c3)[nH]c2c1,MY330/88,MIC,125 µM
[N-]=[N+]=NC[C@H]1O[C@H](O[C@H]2O[C@H](CN=[N+]=[N-])[C@@H](O)[C@H](O)[C@H]2O)[C@H](O)[C@@H](O)[C@@H]1O,NJ168,MIC,>128 µg/mL
NC(=S)c1cc(SCc2ccc(Cl)cc2)ccn1,CNCTC MY330/88,MIC,7.94 µM
Clc1ccc(C(Cn2ccnc2)OCc2cccc3ccccc23)c(Cl)c1,103317,MIC,2.52 µM
Cc1c(CN2CCSCC2)cc(-c2ccccc2)n1-c1ccccc1,,MIC,16 µg/mL
O=C(Nc1ccccc1)c1ccccc1O,CNCTC MY330/88,MIC,62.5 µM
Cc1ccc2oc(=O)n(-c3ccc(Cl)c(Cl)c3)c(=O)c2c1,CNCTC MY330/88,MIC,16 µM
COc1ccc(NC(=O)c2ccccc2O)cc1,CNCTC MY330/88,MIC,62.5 µM
NC(=S)c1cc(SCc2ccccc2F)ccn1,CNCTC MY330/88,MIC,15.85 µM
O=c1oc2ccc(Cl)cc2c(=O)n1-c1ccc(Br)cc1,CNCTC MY330/88,MIC,8 µM
CCCCCOc1ccc(NC(=O)OCCN(C)C)cc1,MY330/88,MIC,16 µM
Cc1ccc(-n2c(=O)oc3ccc([N+](=O)[O-])cc3c2=O)cc1,CNCTC MY330/88,MIC,250 µM
Cc1onc(-c2ccccc2Cl)c1C(=O)N[C@@H]1C(=O)N2[C@@H]1SC(C)(C)[C@@H]2C(=O)O,ATCC 25291,Mean MIC,>213 µg/mL
Cn1cnnc1SCc1ccc(Cl)cc1,MY330/88,MIC,1000 µM
Cc1c(CN2CCN(C)CC2)cc(-c2ccccc2Cl)n1-c1ccccc1,,MIC,>16 µg/mL
Cc1ccc2nc(SCc3cccc([N+](=O)[O-])c3)[nH]c2c1,MY330/88,MIC,>62 µM
Cc1c(CN2CCSCC2)cc(-c2ccc(F)cc2)n1-c1ccc(F)cc1,,MIC,>16 µg/mL
CCCCCCCCNC[C@H]1O[C@H](O[C@H]2O[C@H](CNCCCCCCCC)[C@@H](O)[C@H](O)[C@H]2O)[C@H](O)[C@@H](O)[C@@H]1O,NJ168,MIC,8 µg/mL
Clc1ccc(/C(Cn2ccnc2)=N\OC/C=C/c2ccccc2)c(Cl)c1,103317,MIC,20.7 µM
O=S(=O)(NC[C@H]1O[C@H](O[C@H]2O[C@H](CNS(=O)(=O)c3ccccc3)[C@@H](O)[C@H](O)[C@H]2O)[C@H](O)[C@@H](O)[C@@H]1O)c1ccccc1,NJ3350,MIC,>128 µg/mL
Clc1ccc(CNc2ccccc2N2CCSCC2)cc1,103317,MIC,103 µM
Cc1ccc2nc(SCc3ccc([N+](=O)[O-])cc3[N+](=O)[O-])[nH]c2c1,MY330/88,MIC,>125 µM
CCCCCCCCOc1ccc(NC(=O)OCCN2CCCCC2)cc1,MY330/88,MIC,16 µM
S=c1oc2c(Cl)cc(Cl)cc2c(=S)n1-c1cccc(Cl)c1,330/88,MIC,32 µM
Cc1ccc(NC(=O)c2ncccc2O)cc1,CNCTC MY330/88,MIC,62.5 µM
CCCCCCCCCOc1cccc(NC(=O)OCCN2CCOCC2)c1,MY330/88,MIC,32 µM

The first 6 rows once more:

SMILES	strain	endpoint	result
O/N=C(/Cn1ccnc1)c1ccccc1	103317	MIC	39.7 µM
CCCCCOc1cccc(NC(=O)OCCN2CCCCC2)c1	MY330/88	MIC	62.5 µM
NC[C@H]1O[C@H](O[C@H]2[C@H](O)[C@@H](O[C@H]3O[C@H](CO)[C@@H](O)[C@H](N)[C@H]3O)[C@H](N)C[C@@H]2N)[C@H](O)[C@@H](O)[C@@H]1O	ATCC 25291	Mean MIC	3.13 µg/mL
CCCCC(CC)CNC[C@H]1O[C@H](O[C@H]2O[C@H](CNCC(CC)CCCC)[C@@H](O)[C@H](O)[C@H]2O)[C@H](O)[C@@H](O)[C@@H]1O	NJ168	MIC	64 µg/mL
Cc1c(CN2CCSCC2)cc(-c2ccccc2)n1-c1ccccc1F		MIC	>16 µg/mL
CC(C)N=c1cc2n(-c3ccc(Cl)cc3)c3ccccc3nc-2cc1Nc1ccc(Cl)cc1	24657	MIC	6.7 µg/mL